Reference: paper PMC7053999, “ParB spreading on DNA requires cytidine triphosphate in vitro” (eLife, 2020)

Assays:
[1] = tested on: Staphylococcus ParB (Staphylococcus); assay: BLI; settings: 1 mM CTP (enhanced), Mg2+; BLI at 22 C: 100 mM Tris-HCl pH 8.0, 100 mM NaCl, 1 mM MgCl2, 0.005% Tween 20; 1 uM protein dimer; recombinant protein; protein details: N-terminal His6-MBP; label: biotin at both 5' ends
[2] = target: T1, Xanthomonas campestris ParB (Xanthomonas campestris) (UniProt Q8P466); assay: BLI; settings: 0.01 mM CTP (enhanced), Mg2+; BLI at 22 C: 100 mM Tris-HCl pH 8.0, 100 mM NaCl, 1 mM MgCl2, 0.005% Tween 20; 1 uM protein dimer; recombinant protein; protein details: N-terminal His6-MBP; label: biotin at both 5' ends
T1 sequence (looked up, limits assumed): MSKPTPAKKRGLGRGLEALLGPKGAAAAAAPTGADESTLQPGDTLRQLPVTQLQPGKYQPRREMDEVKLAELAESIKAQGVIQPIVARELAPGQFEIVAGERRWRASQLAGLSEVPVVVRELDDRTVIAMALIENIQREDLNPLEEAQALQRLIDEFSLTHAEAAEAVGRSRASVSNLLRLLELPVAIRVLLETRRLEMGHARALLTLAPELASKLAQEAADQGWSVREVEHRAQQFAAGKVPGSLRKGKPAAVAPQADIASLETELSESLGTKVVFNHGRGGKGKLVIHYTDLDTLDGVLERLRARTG

Question: Does “CGCCAGGGTTTTCCCAGTCACGACGTTGTAAAACGACGGCCAGTGAATTCGAGCTCGGTACCCGCAGGAGGACGTAGGGTAGGGGGATGTTTCACGTGAAACAGGGGATCCTCTAGAGTCGACCTGCAGGCATGCAAGCTTGGCGTAATCATGGTCATAGCTGTTTCCT (double strand) [169 bp parS closed DNA]” bind [1]?
Answer: binds

Question: Does “CGCCAGGGTTTTCCCAGTCACGACGTTGTAAAACGACGGCCAGTGAATTCGAGCTCGGTACCCGCAGGAGGACGTAGGGTAGGGGGATGTTTCACGTGAAACAGGGGATCCTCTAGAGTCGACCTGCAGGCATGCAAGCTTGGCGTAATCATGGTCATAGCTGTTTCCT (double strand) [169 bp parS closed DNA]” bind [2]?
Answer: binds

Construct, isoform or probe ends are uncertain for at least one entry. At least one verdict rests on a figure or table, not on a statement of the authors. For some assays here: Protein sequences can lack the tags named with them.
